Test results as given in patent publication US20230303666A1, “Cell-free antibody engineering platform and neutralizing antibodies for sars-cov-2” (published 2023).
Numbering of substitutions follows the chain as printed. Values joined by “and” are separate entries in the source; they are usually repeats but may differ in a detail not shown here. Equal entries are not always repeated.

B1: SR6t12 (VHH, not shown: small tags and cut ends)
VHH: QVQLVVSGGGLVRAGDSLRLSCTASGDCHVLWRMGWFRQASGKELEFVAAISLDGQFANYADSVRGRFSISADSAENTVYLQMNSLEPEDTAVYYCAALPFLDYWGQGTQVTVSS
B2: SR8 (VHH, not shown: small tags and cut ends)
VHH: EVQLVESGGGLVQAGDSLRLSCAASGDYCMDCFMGWFRQAPGKEREFVAAITPYSFKTYYADSVKGRFTISRDDARNTVYLQMNSLKPEDTAVYYCAANPLDPNWTNSDYWGQGTQVTVSS
B3: SR8c2 (VHH, not shown: small tags and cut ends)
VHH: B2 VHH with S55G, N107H
B4: SR8t5 (VHH, not shown: small tags and cut ends)
VHH: B2 VHH with S55G, I70F, K87R, N107H, W111R
B5: SR12 (VHH, not shown: small tags and cut ends)
VHH: EVQLVESGGGLVQAGDSLRLSCAASGAIVHVFAMGWFRQAPGKEREFVASINLDNDATNYADSVKGRFTISRDDARNTVYLQMNSLKPEDTAVYYCNATIFMDSDLGDYWGQGTQVTVSS
B6: SR12c3 (VHH, not shown: small tags and cut ends)
VHH: B5 VHH with A57V, M102T, D105G
B7: SR12c5 (VHH)
VHH: B5 VHH with A57V, F101L, M102T, D103V, D105G
B8: SR12f3 (VHH)
VHH: B5 VHH with E1Q, E6V, Q112R
B9: SR12t6 (VHH)
VHH: B5 VHH with E1Q, E6V, A57V, M102T, D105G, Q112R
B10: SR12t9 (VHH)
VHH: B5 VHH with E1Q, E6V, G9R, A23V, K43E, N59I, D73G, M102T, Q112R
B11: SR1 (VHH, not shown: small tags and cut ends)
VHH: EVQLVESGGGLVQAGDSLRLSCAASGKTGRSVIMGWFRQAPDKEREFVATITRGDDTTNYADSVKGRFTISRDDARNTVYLQMNSLKPEDTAVYYCAAVYFVNDCIVDYWGQGTQVTVSS
B12: SR1t2 (VHH, not shown: small tags and cut ends)
VHH: B11 VHH with Q3R, Q13L
B13: SR2 (VHH, not shown: small tags and cut ends)
VHH: EVQLVESGGGLVQAGDSLRLSCAASGAFGSNVFMGWFRQAPGKEREFVASITPHHTVTDYADSVRGRFSISADSAKNTVYLQMNSLKPEDTAVYYCAAAIYRNASVLDYWGQGTQVTVSS
B14: SR2c3 (VHH, not shown: small tags and cut ends)
VHH: B13 VHH with G29S, T56A, S105T
B15: SR2c4 (VHH, not shown: small tags and cut ends)
VHH: B13 VHH with G29S, T56A, R102C, S105T
B16: SR2f3 (VHH, not shown: small tags and cut ends)
VHH: B13 VHH with E1Q, Q39L, S74T
B17: SR2t5 (VHH, not shown: small tags and cut ends)
VHH: B13 VHH with E1Q, G29S, T56A, S74T, S105T
B18: SR2t9 (VHH, not shown: small tags and cut ends)
VHH: B13 VHH with E1Q, S25T, G29S, Q39L, T56A, S74T, S85A, R102C, S105T
B19: SR4 (VHH, not shown: small tags and cut ends)
VHH: EVQLVESGGGLVQAGDSLRLSCAASGFQLSCYCMGWFRQAPGKEREFVASITQHAFRTYYADSVKGRFTISRDDARNTVYLQMNSLKPEDTAVYYCAAAETPNILVYENYWGQGTQVTVSS

Tests used:
[1] = biological target: SARS-CoV-2 S deleted of the 27 a.a. at the C-terminal and fused to the NRVRQGYS sequence of HIV-1, o (SARS-CoV-2), P0DTC2; assay: cell-based or functional assay
[2] = biological target: SARS-CoV-2 S deleted of the C-terminal 27 a.a. and fused to the NRVRQGYS sequence of HIV-1 (pCMV-SAR (SARS-CoV-2), P0DTC2); assay: cell-based or functional assay

Row | Binder | Pseudovirus neutralization % inhibition, VHH 5 nM [1] | Pseudovirus neutralization % inhibition, VHH 50 nM [1] | Pseudovirus neutralization % inhibition, VHH 500 nM [1] | Pseudovirus neutralization % inhibition, 5 nM VHH, replicate 1 [2] [%] | Pseudovirus neutralization % inhibition, 5 nM VHH, replicate 2 [2] [%] | Pseudovirus neutralization % inhibition, 50 nM VHH, replicate 1 [2] [%] | Pseudovirus neutralization % inhibition, 50 nM VHH, replicate 2 [2] [%] | Pseudovirus neutralization % inhibition, 500 nM VHH, replicate 1 [2] [%] | Pseudovirus neutralization % inhibition, 500 nM VHH, replicate 2 [2] [%]
1 | B1 | 16.6% and 3.93% | 61% and 57.4% | 86.4% and 80.3% |  |  |  |  |  | 
2 | B2 | 14.3% and 8.81% | 11.9% and 8.95% | 24% and 16.3% |  |  |  |  |  | 
3 | B3 | 4.55% and 1.42% | 3.96% and 3.35% | 12.1% and 10.3% |  |  |  |  |  | 
4 | B4 | -8.28% and -6.59% | -4.49% and -0.947% | 1.59% and -3.29% |  |  |  |  |  | 
5 | B5 | 1% and -0.472% | 2.13% and -0.0778% | 8.42% and 4.6% |  |  |  |  |  | 
6 | B6 | 0.0771% and -2.52% | 13.9% and 9.88% | 51.7% and 36.8% |  |  |  |  |  | 
7 | B7 |  |  |  | 8.71 | 3.62 | 10.7 | 3.97 | 12.9 | 5.23
8 | B8 |  |  |  | 12.7 | 3.93 | 11.6 | 5.99 | 14 | 8.56
9 | B9 |  |  |  | 7.32 | 0.157 | 11.4 | 9.26 | 44.7 | 35.3
10 | B10 |  |  |  | -1.72 | -0.52 | 15.5 | 9.91 | 58.2 | 46.5
11 | B11 | 15.4% and 12.7% | 17.1% and 13.8% | 33% and 14% |  |  |  |  |  | 
12 | B12 | -1.91% and 10.2% | 8.43% and 7.24% | 20.3% and 13.4% |  |  |  |  |  | 
13 | B13 | 1.43% and 4.23% | 4.74% and 4.12% | 31.7% and 19.5% |  |  |  |  |  | 
14 | B14 | 0.636% and 4.85% | 16.3% and 16.4% | 67.8% and 59.4% |  |  |  |  |  | 
15 | B15 | 14.3% and 2.66% | 12.8% and 11.3% | 49.5% and 38% |  |  |  |  |  | 
16 | B16 | 2.59% and 0% | 5.01% and 2.67% | 6.02% and -0.622% |  |  |  |  |  | 
17 | B17 | 2.7% and 13.9% | 14.1% and 18.1% | 61.2% and 52% |  |  |  |  |  | 
18 | B18 | 12.4% and 12.1% | 13.4% and 9.88% | 23.5% and 20.8% |  |  |  |  |  | 
19 | B19 | 6.2% and 0.626% | 11% and 8.79% | 32.2% and 20% |  |  |  |  |  | 
